PubChem BioAssay AID1259414 | Drosophila RNAi Screening Center | 2018

Aim: 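Genome-wide screen for host control of endosymbiont load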 (primary screen)
System: Drosophila JW18 cells infected with Wolbachia
Reagent: long dsRNA against Drosophila genes, 0.25 µg dsRNA per well of a 384-well plate
Time to read-out: 5 days
Challenge: cells persistently infected with Wolbachia before knock-down; no added drug
Detection: 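Automated imaging of bacterial rRNA staining divided by host cell count, reported as plate-normalised robust z-score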
Reading the numbers: Wolbachia per cell robust z: higher = more Wolbachia per host cell than the plate typical
Hit rule: 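Active if absolute robust z reaches 1.5 in two or more of three replicates, leaving out multi- or no-target dsRNAs, genes unexpressed in JW18 and A1 wells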
In all, the deposit lists about 24,000 reagents; this is a random part of those with a known target gene and a result. Of all reagents, about 1,210 (5%) were called active. 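Inactive calls also include excluded dsRNAs with several or no targets, genes unexpressed in JW18, and well A1, regardless of score.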 Reagents against one gene are numbered here.

predicted target	reagent no.	Wolbachia per cell robust z, rep 1	Wolbachia per cell robust z, rep 2	Wolbachia per cell robust z, rep 3	Outcome
Reck	1	-0.588	-0.574	1.85	inactive
Reck	2	-0.233	0.543	-0.165	inactive
Gba1b	1	-0.788	-0.941	-0.251	inactive
Fur2	1	-0.0232	-1.96	0.755	inactive
tyf	1	0.614	-0.814	-0.628	inactive
tyf	2	-0.732	0.882	0.778	inactive
w-cup	1	1.1	-0.809	-3.79	inactive
CG34398	1	0.853	0.608	1.92	inactive
CG34398	2	-0.0037	0.211	-9.46	inactive
CG34398	3	0.0806	-0.267	-1.9	inactive
CG34398	4	0.0635	1.09	0.0143	inactive
Pkg21D	1	-0.654	-1.22	0.435	inactive
Pkg21D	2	0.459	-2.99	1.22	inactive
GATAd	1	0.377	-0.562	0.996	inactive
Su(var)2-10	1	1.07	1.87	0.2	inactive
Su(var)2-10	2	-0.192	-0.859	-0.624	inactive
CG5509	1	1.11	-0.966	0.0889	inactive
CG32017	1	-8.41	-8.4	0.242	active
CG32087	1	0.304	-0.211	-1.16	inactive
CG32087	2	0.631	1.76	2.77	inactive
CG13901	1	-0.351	-2.31	-0.845	inactive
hll	1	0.502	0.277	0.786	inactive
Pisd	1	-0.107	0.173	0.393	inactive
CG11300	1	-0.0922	-0.589	0.104	inactive
PICK1	1	0.164	0.32	0.222	inactive
Mpcp2	1	-1.2	0.625	-0.152	inactive
Srrm1	1	-0.834	-1.67	0.282	inactive
TBC1D5	1	0.449	0.504	-0.371	inactive
TBC1D5	2	0.631	-0.59	0.533	inactive
CG15439	1	0.276	0.104	0.958	inactive
CG15439	2	-3.12	-0.125	0.472	inactive
Cyp4e2	1	-0.272	-2.71	-0.368	inactive
Nup133	1	0.944	0.195	-0.712	inactive
Cyp308a1	1	0.27	-0.392	0.0507	inactive
Cyp308a1	2	-0.542	-0.401	2.43	inactive
Rgk1	1	0.412	1.14	1.33	inactive
Rgk1	2	0.0276	0.791	0.249	inactive
Rgk1	3	0.403	0.213	0.642	inactive
Rgk1	4	1.14	0.852	0.278	inactive
Rgk1	5	-0.506	-0.344	-1.74	inactive
MED17	1	-1.83	0.324	-2.67	active
hppy	1	-1.14	-1.09	0.639	inactive
hppy	2	-1.23	-3.01	-0.906	inactive
hppy	3	0.319	0.149	-1.34	inactive
hppy	4	1.22	0.435	1.16	inactive
RIOK1	1	0.697	0.744	0.719	inactive
sphinx1	1	0.562	-1.92	1.09	inactive
sphinx1	2	0.733	-1.2	-0.248	inactive
Alg12	1	0.299	-1.83	0.348	inactive
Pcif1	1	0.374	-0.444	0.0042	inactive
Pcif1	2	0.157	-0.44	0.471	inactive
CG5521	1	0.396	-3.8	0.858	inactive
CG5521	2	0.608	0.79	-0.0944	inactive
CG14567	1	-0.236	0.515	0.00767	inactive
laza	1	-2.06	-2.82	1.53	inactive
laza	2	-0.627	0.325	0.219	inactive
laza	3	-3.37	-0.598	-2.68	inactive
laza	4	-0.19	0.0254	-1.79	inactive
Gr93c	1	-4.7	-0.578	-1.35	inactive
su(r)	1	-0.647	-9.35	-2.52	active
ana3	1	-1.14	-0.825	-0.13	inactive
ana3	2	0.184	0.216	1.04	inactive
wun2	1	0.88	0.0676	1.02	inactive
UQCR-14	1	-1.23	-0.331	0.898	inactive
UQCR-14	2	-0.383	0.164	-0.314	inactive
sky	1	0.312	0.103	0.25	inactive
sky	2	0.673	-0.931	-0.838	inactive
sky	3	0.259	-4.14	-0.941	inactive
